Results taken from patent US8362201B2 (priority 2000, dated 2013).

Test system: newborn BALB/c mice
Test: Subcutaneous injection into newborn mice

SMILES: CC[C@H](C)[C@H](NC(=O)CNC(=O)CNC(=O)[C@H](CC(C)C)NC(=O)[C@@H](NC(=O)CNC(=O)CNC(=O)[C@@H](NC(=O)[C@H](CC(C)C)NC(=O)CNC(=O)[C@@H]1CCCN1C(=O)CNC(=O)[C@H](CO)NC(=O)[C@H](CO)NC(=O)[C@@H](NC(=O)[C@@H]1CSSC[C@@H]2NC(=O)[C@H](CC(=O)O)NC(=O)[C@H](CCCNC(=N)N)NC(=O)[C@H](CC(N)=O)NC(=O)[C@H](CO)NC(=O)[C@H](CO)NC(=O)[C@@H]3CSSC[C@H](NC(=O)[C@H](C(C)C)NC(=O)[C@@H]4CCCN4C(=O)[C@H]([C@@H](C)O)NC(=O)[C@H](CC(C)C)NC(=O)[C@H](CCC(=O)O)NC(=O)[C@H](CSSC[C@H](NC(=O)[C@H](C)NC(=O)[C@H](CC(C)C)NC(=O)[C@@H](N)CC(C)C)C(=O)N[C@@H](CC(C)C)C(=O)N[C@@H](Cc4ccccc4)C(=O)NCC(=O)N[C@@H](CC(N)=O)C(=O)NCC(=O)N[C@@H](CCCNC(=N)N)C(=O)N3)NC2=O)C(=O)N[C@@H](CCCCN)C(=O)N[C@@H](CCCNC(=N)N)C(=O)NCC(=O)N[C@@H](CO)C(=O)N1)C(C)C)C(C)C)[C@@H](C)CC)C(=O)N[C@@H](CC(C)C)C(=O)O
- highest mouse dose without adverse effects relative to PD50 in crickets (800 pmol g^−1 in mice versus PD50 in crickets): 5 fold
- adverse effects (subcutaneous, newborn BALB/c mice, doses up to 800 pmol g^−1, n=3): did not provoke any adverse effects
